Measured values from several laboratories, pooled; numbers as filed in NIAID ChemDB.

Common to all: growth or infection tests; agent: HIV-1; endpoint: fold resistance

Fold resistance: result on the changed form divided by that on wild type. Neighbouring rows are from separate reports. Blank or dashed fields: not listed here.

SMILES	method	cells	strain or isolate	changes	result
CC(=O)Nc1cccc2c1nc(-c1c(F)cccc1F)n2Cc1c(F)cccc1F	cytopathic effect / MTT	MT-4	-	RT-K103N	>12.5
Cc1cn([C@H]2C[C@H](F)[C@@H](CO)O2)c(=O)[nH]c1=O	antigen	PBMC	A(RT-Q151M)	RT-Q151M	0.4
Nc1ccn([C@H]2CC[C@@H](CO)O2)c(=O)n1	syncytia	CEM	IIIB TSAO-T(RT-E138K)	RT-E138K	0.6
Cc1cn([C@@H]2O[C@H](CO[Si](C)(C)C(C)(C)C)C3(OS(=O)(=O)C=C3N)[C@H]2O[Si](C)(C)C(C)(C)C)c(=O)n(C)c1=O	cytopathic effect / MTT	MT-4	HXB2 (RT E138A S162C E169D T200A L214F) Clinical isolate	RT-E138A S162C E169D T200A L214F	706
O=c1[nH]cnc2c1ncn2[C@H]1CC[C@@H](CO)O1	-	MT-2	HXB2D (RT D67N K70R T215Y)	RT-D67N K70R T215Y	1.45
c1ccc2c(c1)sc1nccn12	cytopathic effect / XTT	CEM + CEM-SS	IIIB(THZ-R(I))	RT-V108I	>200
Cc1ccnc(N2C(=O)CSC2c2c(Cl)cccc2Cl)n1	cytopathic effect	CEM	-	RT-L100I	13.75
O=c1[nH]cnc2c1ncn2[C@H]1CC[C@@H](CO)O1	cytopathic effect / MTT	MT-4	Recombinant mutant	RT-A98S E138A	0.9
Cc1ccnc2c1NC(=O)c1cccnc1N2C1CC1	p24	H9	B9 (RT L100I V106A G190A)	RT-L100I V106A G190A	>111
CC(=O)N(C)c1cccc2c1nc(-c1c(F)cccc1F)n2Cc1c(F)cccc1F	cytopathic effect / MTT	MT-4	-	RT-L100I	0.97
Cc1cn([C@@H]2O[C@H](CO[Si](C)(C)C(C)(C)C)C3(OS(=O)(=O)C=C3N)[C@H]2O[Si](C)(C)C(C)(C)C)c(=O)n(C)c1=O	syncytia	CEM	Pyr(RT-Y181C)	RT-Y181C	82.5
Cc1cn([C@H]2C[C@H](N=[N+]=[N-])[C@@H](CO)O2)c(=O)[nH]c1=O	cytopathic effect / XTT	CEM + CEM-SS	NL4-3	RT-A98G	10
CCc1c(C(=O)c2cc(C)cc(C)c2)n(CC2CC=CC2)c(=O)[nH]c1=O	cytopathic effect / XTT	CEM + CEM-SS	NL4-3	Y188C	30
Cc1cn([C@H]2C[C@H](N=[N+]=[N-])[C@@H](CO)O2)c(=O)[nH]c1=O	p24	MT-2	P119S(RT-P119S)	RT-P119S	0.9
N#CCN1C(=O)N(Cc2ccccc2)S(=O)(=O)c2cscc21	syncytia	CEM	-	RT-L100I	6.5
Cc1ccc(NC(=O)CSc2nnc(C)n2-c2cccc3ccccc23)c(Cl)c1	luciferase	HeLa + HeLa-JC53	NL4-3	RT-K103N Y181C	13
CCc1c(Sc2ccccn2)n(COCc2ccccc2)c(=O)[nH]c1=O	cytopathic effect / XTT	CEM + CEM-SS	4XAZT+Y181C (RT D67N K70R Y181C T215Y K219Q)	RT-D67N K70R Y181C T215Y K219Q	17.8
CC(C)Nc1cccnc1N1CCN(C(=O)c2cc3ccccc3[nH]2)CC1	syncytia	CEM	TSAO(RT-E138K)	RT-E138K	1.75
Fc1cccc(F)c1C1SCc2nc3ccccc3n21	cytopathic effect	CEM	-	RT-Y188H	2.99
CC(C)Nc1cccnc1N1CCN(C(=O)c2cc3cc(NS(C)(=O)=O)ccc3[nH]2)CC1	p24	PBMC	NRTI resistant (RT Y181C K103N) A17 variant	RT-Y181C K103N	11100
CCc1ccc(-n2c(C)nnc2SCC(=O)Nc2ccccc2Br)c2ccccc12	luciferase	HeLa + HeLa-JC53	NL4-3	RT-K103N Y181C	44
CCCCNc1nc(C(C)c2c(F)cccc2F)cc(=O)[nH]1	cytopathic effect / MTT	MT-4	-	RT-Y181C	20
O=S1(c2ccccc2)=NC(=S)Nc2ccccc21	cytopathic effect / XTT	CEM + CEM-SS	IIIB(TIBO-R(I))	RT-A98G V108I	44.5
CC(C)=CCN1Cc2cc(Cl)cc3[nH]c(=S)n(c23)C[C@@H]1C	-	PBMC	MVP5180 (RT A98G K103R)	RT-A98G K103R	>312.5
CN(C)c1cccc2c1nc(-c1c(F)cccc1F)n2Cc1c(F)cccc1F	cytopathic effect / MTT	MT-4	-	RT-V108I	6.4
S=C(NCCc1cccs1)Nc1ccc(Br)cn1	p24	PBMC	NRTI resistant (RT Y181C) A17	RT-Y181C	1.3
Nc1ncnc2c1ncn2CCOCP(=O)(O)O	-	-	K65R	RT-K65R	10
CC(C)=CCN1c2cc(Cl)cc3[nH]c(=S)n(c23)C[C@@H]1C	-	MT-4	-	RT-M41L T215Y L100I	2
Cc1cn([C@@H]2O[C@H](CO[Si](C)(C)C(C)(C)C)[C@@]3(OS(=O)(=O)C=C3N)[C@H]2O[Si](C)(C)C(C)(C)C)c(=O)[nH]c1=O	syncytia	CEM	IIIB TIBO R82913 STR-B02 (RT L100I E138K)	RT-L100I E138K	117
Nc1nc2c(ncn2[C@H]2CC[C@@H](CO)O2)c(=O)[nH]1	syncytia	CEM	MN-QUIN(RT-G190E)	RT-G190E	0.25
CCOCn1c(Cc2cc(C)cc(C)c2)c(CC)c(=O)[nH]c1=O	syncytia	CEM	IIIB TSAO-T(RT-E138K)	RT-E138K	70
CNc1cccc2c1nc(-c1c(F)cccc1F)n2Cc1c(F)cccc1F	cytopathic effect / MTT	MT-4	-	RT-Y181C	1.58
CNc1nc(C(C)c2c(F)cccc2F)c(C)c(=O)[nH]1	cytopathic effect / MTT	MT-4	-	RT-Y181C	650
C[C@H](Cn1cnc2c(N)ncnc21)OCP(=O)(O)O	-	MT-2	HXB2D (RT D67N K70R T215Y)	RT-D67N K70R T215Y	2.4
CCC(C)Nc1nc(Cc2c(F)cccc2F)c(C)c(=O)[nH]1	cytopathic effect / MTT	MT-4	-	RT-Y181C	38
O=c1[nH]cnc2c1ncn2[C@H]1CC[C@@H](CO)O1	p24	MT-2	RT P119S V179D L214F	RT-P119S V179D L214F	1.1
Cc1ccnc2c1NC(=O)c1cccnc1N2C1CC1	-	PBMC	RUD (RT-A98G)	RT-A98G	1.3
Cc1ccnc2c1NC(=O)c1cccnc1N2C1CC1	cytopathic effect / XTT	CEM + CEM-SS	4XAZT/Y181C (RT D67N K70R Y181C T215Y K219Q)	RT-D67N K70R Y181C T215Y K219Q	40
Cc1ccnc2c1NC(=O)c1cccnc1N2C1CC1	cytopathic effect	CEM	-	RT-E138K	1
Cc1cn([C@H]2C[C@H](N=[N+]=[N-])[C@@H](CO)O2)c(=O)[nH]c1=O	p24	MT-2	LAI	RT-L74V	1.9
Nc1nc(=O)n([C@@H]2CC[C@H](CO)O2)cc1F	-	HT4 + HT4 LacZ-1	184V (RT-M184V)	RT-M184V	>500
CN1C(=O)N(Cc2ccccc2)S(=O)(=O)c2cscc21	syncytia	CEM	-	RT-E138K	>141
Nc1nc2c(ncn2[C@H]2CO[C@@H](CO)O2)c(=O)[nH]1	p24	MT-2	LAI	RT-K65R	8.7
Cc1ccc(NC(=O)CSc2nnc(C)n2-c2ccccc2)c(Br)c1	luciferase	HeLa + HeLa-JC53	NL4-3	RT-K103N Y181C	13
CCn1c(=O)c(C)cn([C@@H]2O[C@H](CO[Si](C)(C)C(C)(C)C)C3(OS(=O)(=O)C=C3N)[C@H]2O[Si](C)(C)C(C)(C)C)c1=O	syncytia	CEM	HXB2 (RT E138A S162C E169D T200A L214F) Clinical isolate	RT-E138A S162C E169D T200A L214F	>660
CC(C)=CCN1Cc2cc(Cl)cc3[nH]c(=S)n(c23)C[C@@H]1C	syncytia	CEM	IIIB TSAO-T(RT-E138K)	RT-E138K	5
Nc1ccn([C@@H]2CO[C@H](CO)S2)c(=O)n1	RT activity	MT-2	HXB2D (RT-K65R)	RT-K65R	18.33
Nc1ncnc2c1ncn2CCOCP(=O)(O)O	p24	MT-2	T215Y(RT-T215Y)	RT-T215Y	1.8
CC(C)Nc1cccnc1N1CCN(C(=O)c2cc3cc(NS(C)(=O)=O)ccc3[nH]2)CC1	syncytia	CEM	Quin-0.02(RT-V106A)	RT-V106A	17.5
Cc1cn([C@H]2C[C@H](N=[N+]=[N-])[C@@H](CO)O2)c(=O)[nH]c1=O	cytopathic effect / XTT	CEM + CEM-SS	NL4-3	RT-K101E	1.33
COc1cc(C)nc(N2C(=O)CSC2c2c(Cl)cccc2Cl)n1	cytopathic effect	CEM	-	RT-Y188H	151.5
Nc1nc2c(ncn2[C@H]2CO[C@@H](CO)O2)c(=O)[nH]1	-	-	Clinical isolate	RT-K103N M184V	~0.455
Nc1ccn([C@H]2CC[C@@H](CO)O2)c(=O)n1	-	HT4 + HT4 LacZ-1	184V (RT-M184V)	RT-M184V	2.11
Cc1c(Sc2ccccc2)n(COCCO)c(=O)[nH]c1=O	cytopathic effect / XTT	CEM + CEM-SS	IIIB	RT-K103N Y181C	>18
CCN1C(=O)N(Cc2cccc(Cl)c2)S(=O)(=O)c2cscc21	syncytia	CEM	-	RT-E138K	8.36
Cc1cn([C@H]2C[C@H](N=[N+]=[N-])[C@@H](CO)O2)c(=O)[nH]c1=O	p24	PBMC	1495-2 (RT K70R T215Y/F) NRTI resistant	RT-K70R T215Y/F	7
N#CCN1C(=O)N(Cc2cccc(F)c2)S(=O)(=O)c2cscc21	syncytia	CEM	-	RT-K103N	47.5
Nc1nc2c(ncn2[C@H]2CC[C@@H](CO)O2)c(=O)[nH]1	syncytia	CEM	IIIB TSAO-T(RT-E138K)	RT-E138K	3.5
O=c1[nH]cnc2c1ncn2[C@H]1CC[C@@H](CO)O1	-	PBMC	BCF08	RT-A98G Y181C	0.235
Cc1cn([C@H]2C=C[C@@H](CO)O2)c(=O)[nH]c1=O	p24	MT-2	LAI	RT-K65R	3
CC(C)=CCN1Cc2cccc3[nH]c(=S)n(c23)C[C@@H]1C	cytopathic effect / XTT	CEM + CEM-SS	IIIB(N119(III))	RT-Y181C	>1000
CC(C)=CCN1Cc2cc(Cl)cc3[nH]c(=S)n(c23)C[C@@H]1C	cytopathic effect / MTT	MT-4	Recombinant mutant	RT-A98S E138A	2.3
Fc1cccc(F)c1Cn1c(-c2c(F)cccc2F)nc2c(Br)cccc21	cytopathic effect / MTT	MT-4	-	RT-Y181C	16.8
CC(C)=CCOc1cc(NC(=S)c2ccsc2C)ccc1Cl	cytopathic effect	CEM	IIIB	RT-V106A	1.67
Cc1c(C(C)c2c(F)cccc2F)nc(NC(C)C)[nH]c1=O	cytopathic effect / MTT	MT-4	-	RT-Y181C	29
CC(C)=CCOc1cc(NC(=S)c2ccoc2C)ccc1Cl	cytopathic effect	CEM	IIIB	RT-K103N	11.5
Cc1ccc(NC(=O)CSc2nnc(C)n2-c2ccc(C)c3ccccc23)c(Cl)c1	luciferase	HeLa + HeLa-JC53	NL4-3	RT-K103N Y181C	16
Cc1cn([C@H]2C[C@H](N=[N+]=[N-])[C@@H](CO)O2)c(=O)[nH]c1=O	cytopathic effect	CEM	-	RT-K103N	1.57
Cc1cc(S(N)(=O)=O)ccc1NC(=O)COc1ccc(Cl)cc1C(=O)c1cc(Cl)cc(C#N)c1	β-galactosidase	MAGI	NNRTI-resistant (RT K103N Y181C)	RT-K103N Y181C	2.69
Cc1cc(C)nc(N2C(=O)CSC2c2c(Cl)cccc2Cl)n1	cytopathic effect	CEM	-	RT-K103N	676
Cc1occc1C(=S)Nc1ccc(Cl)c(/C=N/OC(C)(C)C)c1	cytopathic effect	CEM	IIIB	RT-V179D	10.63
Nc1cccc2c1nc(-c1c(F)cccc1F)n2Cc1c(F)cccc1F	cytopathic effect / MTT	MT-4	-	RT-L100I	0.6
Nc1nc(N)c2ncn([C@H]3CO[C@@H](CO)O3)c2n1	p24	MT-2	LAI	RT-K65R	4.5
COc1ccc2c(c1)N(C(=O)OC(C)C)[C@@H](CSC)C(=S)N2	cytopathic effect / MTT	MT-4	Recombinant mutant	RT-A98S E138A	1.6
Nc1ncnc2c1ncn2[C@@H]1O[C@H](CO)C[C@@H]1F	p24	MT-2	M184V(RT-M184V)	RT-M184V	0.9
Cc1nnc(SCC(=O)Nc2ccccc2Br)n1-c1cccc2ccccc12	luciferase	HeLa + HeLa-JC53	NL4-3	RT-Y188L	360
Cc1cn([C@@H]2O[C@H](CO[Si](C)(C)C(C)(C)C)C3(OS(=O)(=O)C=C3N)[C@H]2O[Si](C)(C)C(C)(C)C)c(=O)n(C)c1=O	cytopathic effect	CEM	IIIB	RT-V106A	15.33
CCCc1cc(=O)oc2c3c(c4c(c12)OC(C)(C)C=C4)O[C@H](C)[C@@H](C)[C@@H]3O	cytopathic effect / XTT	CEM + CEM-SS	IIIB(N119(III))	RT-Y181C	0.5
Cc1ccc2ccccc2c1-n1c(C)nnc1SCC(=O)Nc1ccccc1Br	luciferase	HeLa + HeLa-JC53	NL4-3	RT-K103N Y181C	65

8 of the rows above, restated:

| SMILES | method | cells | strain or isolate | changes | result |
|---|---|---|---|---|---|
| Cc1cn([C@H]2C=C[C@@H](CO)O2)c(=O)[nH]c1=O | p24 | MT-2 | LAI | RT-K65R | 3 |
| CCCc1cc(=O)oc2c3c(c4c(c12)OC(C)(C)C=C4)O[C@H](C)[C@@H](C)[C@@H]3O | cytopathic effect / XTT | CEM + CEM-SS | IIIB(N119(III)) | RT-Y181C | 0.5 |
| Cc1ccnc2c1NC(=O)c1cccnc1N2C1CC1 | cytopathic effect | CEM | - | RT-E138K | 1 |
| CNc1cccc2c1nc(-c1c(F)cccc1F)n2Cc1c(F)cccc1F | cytopathic effect / MTT | MT-4 | - | RT-Y181C | 1.58 |
| CC(C)=CCOc1cc(NC(=S)c2ccoc2C)ccc1Cl | cytopathic effect | CEM | IIIB | RT-K103N | 11.5 |
| Cc1cn([C@@H]2O[C@H](CO[Si](C)(C)C(C)(C)C)C3(OS(=O)(=O)C=C3N)[C@H]2O[Si](C)(C)C(C)(C)C)c(=O)n(C)c1=O | syncytia | CEM | Pyr(RT-Y181C) | RT-Y181C | 82.5 |
| CC(C)Nc1cccnc1N1CCN(C(=O)c2cc3ccccc3[nH]2)CC1 | syncytia | CEM | TSAO(RT-E138K) | RT-E138K | 1.75 |
| Cc1c(C(C)c2c(F)cccc2F)nc(NC(C)C)[nH]c1=O | cytopathic effect / MTT | MT-4 | - | RT-Y181C | 29 |